Values of other authors in article PMC7941644, “Identification and Development of Therapeutics for COVID-19” (ArXiv, 2021).

system: COVID-19; design: key: A grade of A indicates that a treatment is considered effective; B that all or most RCTs have shown positive results; C that RCT data are not yet available; D that multiple RCTs have produced negative results; settings: not given

Compound | Grade (STORM)
C[C@@H]1C[C@H]2[C@@H]3CCC4=CC(=O)C=C[C@]4(C)[C@@]3(F)[C@@H](O)C[C@]2(C)[C@@]1(O)C(=O)CO [dexamethasone, 9α-fluoro-16α-methylprednisolone] | A
COCCCC/C(=N\OCCN)c1ccc(C(F)(F)F)cc1 [fluvoxamine] | B

same assay, conditions: rating by CSTL STORM; table updated August 20, 2021

Compound | Grade (STORM)
CC[C@H](C)[C@H]1O[C@]2(CC[C@@H]1C)C[C@@H]1C[C@@H](C/C=C(\C)[C@@H](O[C@H]3C[C@H](OC)[C@@H](O[C@H]4C[C@H](OC)[C@@H](O)[C@H](C)O4)[C@H](C)O3)[C@@H](C)/C=C/C=C3\CO[C@@H]4[C@H](O)C(C)=C[C@@H](C(=O)O1)[C@]34O)O2 [ivermectin] | D
TCZ: humanized monoclonal antibody that binds the insoluble and soluble receptor of IL-6 | A
CCC(CC)COC(=O)[C@H](C)N[P@](=O)(OC[C@H]1O[C@@](C#N)(c2ccc3c(N)ncnn23)[C@H](O)[C@@H]1O)Oc1ccccc1 [remdesivir] | A
NC(=O)c1nc(F)cnc1O [favipiravir, 6-fluoro-3-hydroxy-2-pyrazinecarboxamide] | D
